Here are results for one compound from patent US9206412B2, “Thioxothiazolidine inhibitors” (Colorado State University Research Foundation, priority 2012, dated 2015).

Chains of the proteins cited; added tags and fusions are not shown. Residues count along the entry.
UniProt P29990, 2492-2758 limits assumed: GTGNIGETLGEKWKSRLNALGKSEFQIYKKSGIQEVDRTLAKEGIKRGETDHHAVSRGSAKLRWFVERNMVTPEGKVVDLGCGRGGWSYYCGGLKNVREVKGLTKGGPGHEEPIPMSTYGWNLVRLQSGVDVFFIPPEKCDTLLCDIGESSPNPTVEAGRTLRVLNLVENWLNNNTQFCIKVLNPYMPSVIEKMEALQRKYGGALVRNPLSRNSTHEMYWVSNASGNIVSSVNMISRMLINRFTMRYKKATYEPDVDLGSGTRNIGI

In assay [1] the target is dengue virus capping enzyme (Dengue virus type 2, UniProt P29990).
Assay [2] addresses yellow fever virus capping enzyme (Yellow fever virus, UniProt P03314).
The subject of assay [3] is dengue type 2 virus subgenomic replicon (BHK-pD2hRucPac). Briefly: Antiviral (replicon) assay, Renilla luciferase. The class given is cell-based. The note with it: read-out: Replicon Assay_EC50_M; Table 2-1. On the technique in general: Replicon systems follow genome replication, usually without infectious particles.

One may read the Ki as the equilibrium dissociation constant of an inhibitor or competing ligand from its target. Read a high Ki as a looser hold on the target.

As for `O=C(CCN1C(=O)SC(=Cc2ccc(Cl)cc2)C1=O)Nc1ccc(S(=O)(=O)Nc2nccs2)cc1`, the Ki in assay [1] and in assay [2] was 6 µM each time. For the same compound, the EC50 in assay [3] is 50 µM.
